Where two headings read alike, the source gives them in different places.
What was measured:
[1] = Excitation 300-500, Emission 545
Method: (§1) 3 μM of each probe was applied to serial two fold dilutions of the carbohydrate of which the concentration shown here are 5 mg/ml (_.), 2.5 mg/ml (. . . ), 1.25 mg/ml (__) and 0 mg/ml (_). The excitation spectrum of the probe was analyzed for wavelengths 300-500 nm with emission read at 545 nm.
(§2) 3 μM of each probe was applied to serial two fold dilutions of the carbohydrate. Respective probes were excited at wavelengths unique to each probe (specified in figure), and emission was read at 545 nm.
(§3) Serial dilutions of carbohydrate suspensions were prepared in dH2O. Concentrations ranging from 10 to 0.039 mg/ml was used for β-1,3-glucan, cellulose and chitin, whereas 5 to 0.019 mg/ml was used for sodium alginate, glucose, amylose, glycogen, cellulobiose, heparin, chondroitin sulfate A. 3 μM of each LCO probe was added to 1 ml aliquots of each concentration of carbohydrate, after which 100 μl was dispensed in triplicates into 96 well plates. Excitation spectra were collected by exciting the sample from 300 to 500 nm and detecting emission at 545 nm. Detection of carbohydrate is concluded when there is a reproducible change in λmax and/or RFU intensity with reference to the negative control. Data from three concentrations, as well as the negative control are shown for each carbohydrate as specified in respective figure.
(§4) The excitation wavelength (emission detected at 545 nm) selected for each LCO is either (1) the λmax, or (2) the excitation wavelength which suffers the lowest background. A linear regression analysis is performed to determine the relationship between the carbohydrate concentration and RFU.

[2] = Excitation 300-500, Emission 545; for λmax-Bound: probe with Chondroitin Sulfate A; for λmax-Unbound: probe without Chondroitin Sulfate A
Method: (§5) The excitation spectrum of the probe was analyzed for wavelengths 300-500 nm with emission read at 545 nm.
as §2, §3, §4

[3] = Excitation 300-500, Emission 545; for λmax-Bound: probe with glucose; for λmax-Unbound: probe without glucose
Method: (§6) 3 μM of each probe was applied to serial two fold dilutions of the carbohydrate of which the concentration shown here are 5 mg/ml (_.), 2.5 mg/ml (. . . ) 1.25 mg/ml (__) and 0 mg/ml (_). The excitation spectrum of the probe was analyzed for wavelengths 300-500 nm with emission read at 545 nm.
3 μM of each probe was applied to serial two fold dilutions of the carbohydrate. Respective probes were excited at wavelengths unique to each probe (specified in figure), and emission was read at 545 nm. […] The mean increase in signal (_) with [Glucose] and the fitted regression line (__) is shown.
as §3, §4

[4] = Excitation 300-500, Emission 545; remark: listed apart in the source
Method: as §5
(§7) 3 μM of each probe was applied to serial two fold dilutions of the insoluble carbohydrate. Respective probes were excited at wavelengths unique to each probe (specified in figure), and emission was read at 545 nm.
as §3, §4

[5] = Excitation 300-500, Emission 545; remark: listed apart in the source
Method: as §6, §2, §3, §4

[6] = Excitation 300-500, Emission 545; for λmax-Bound: probe with sodium alginate; for λmax-Unbound: probe without sodium alginate
Method: as §1, with “of the insoluble carbohydrate of” for “of the carbohydrate of”
as §7, §3, §4

SMILES	λmax-Bound ([1]; probe with glycogen) [nm]	λmax-Bound ([1]; probe with heparin) [nm]	λmax-Unbound ([1]; probe without glycogen) [nm]	λmax-Unbound ([1]; probe without heparin) [nm]	λmax-Bound [2] [nm]	λmax-Unbound [2] [nm]	λmax-Bound [3] [nm]	λmax-Unbound [3] [nm]	λmax-Bound ([4]; probe with cellulose) [nm]	λmax-Bound ([4]; probe with chitin) [nm]	λmax-Bound ([4]; probe with β-1,3-glucan) [nm]	λmax-Unbound ([4]; probe without cellulose) [nm]	λmax-Unbound ([4]; probe without chitin) [nm]	λmax-Unbound ([4]; probe without β-1,3-glucan) [nm]	λmax-Bound ([5]; probe with amylose) [nm]	λmax-Bound ([5]; probe with cellulobiose) [nm]	λmax-Unbound ([5]; probe without amylose) [nm]	λmax-Unbound ([5]; probe without cellulobiose) [nm]	λmax-Bound [6] [nm]	λmax-Unbound [6] [nm]
Cl.Cl.c1csc(-c2cc(CCn3ccnc3)c(-c3ccc(-c4sc(-c5cccs5)cc4CCn4ccnc4)s3)s2)c1 [pHTIm, penta Hydrogen Thiophene Imidazole]	411	392	389	392	424	408	390	390	444	400	402	390	390	391	382	390	392	390	409	399
O=C([O-])C[C@H](NC(=O)Cc1cc(-c2cccs2)sc1-c1ccc(-c2sc(-c3cccs3)cc2CC(=O)N[C@@H](CC(=O)[O-])C(=O)[O-])s1)C(=O)[O-].[Na+].[Na+].[Na+].[Na+] [pHTA-Asp, penta Hydrogen Thiophene Acetic acid Aspartic acid]	400	–	–	–	–	–	–	–	–	443	–	–	–	–	–	–	–	–	–	–
O=C([O-])CC[C@H](NC(=O)Cc1cc(-c2cccs2)sc1-c1ccc(-c2sc(-c3cccs3)cc2CC(=O)N[C@@H](CCC(=O)[O-])C(=O)[O-])s1)C(=O)[O-].[Na+].[Na+].[Na+].[Na+] [pHTA-Glu, penta Hydrogen Thiophene Acetic acid Glutamic acid]	403	–	–	–	–	–	–	–	–	435	–	–	–	–	–	–	–	–	–	–
Cl.Cl.NCCc1cc(-c2cccs2)sc1-c1ccc(-c2sc(-c3cccs3)cc2CCN)s1 [pHTEA, penta Hydrogen Thiophene Ethanol Amine]	411	403	389	395	438	408	387	387	444	397	408	386	387	387	388	387	388	387	409	396
Cl.Cl.O=C(Cc1cc(-c2cccs2)sc1-c1ccc(-c2sc(-c3cccs3)cc2CC(=O)NCCc2c[nH]cn2)s1)NCCc1c[nH]cn1 [pHTA-His, penta Hydrogen Thiophene Acetic acid Histidine]	–	–	–	–	390	–	–	–	444	412	–	–	–	–	385	–	–	–	–	–
